The experiment concerns M. tuberculosis H37Rv growth inhibition, 7H9 media. The experiment in a line: M. tuberculosis growth inhibition, HTS (AID 449762).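 Note: bacterial growth assessed after seven days of incubation.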 Particulars: measured here: IC90 growth inhibition.

Structures are written as SMILES. Inconclusive results are not listed.

One may read the IC90 as the concentration at which the effect reaches the 90% level. Low readings indicate an effect from little substance, high ones a need for much substance. `O=C(OC1CN2CCC1CC2)C1c2ccccc2Oc2ccccc21` (stereo unspecified) registered an IC90 of 44.3 µM.

The values above are taken from PubChem BioAssay AID449762 (Southern Research Specialized Biocontainment Screening …, 2010).
